Pooled drug test results. Numbers come from NIAID ChemDB, via PubChem.

Common to all: whole-cell or culture tests; agent: Mycobacterium tuberculosis

Neighbouring rows are from separate reports. MIC bound comes from a single tested concentration. Blank or dashed fields: not listed here. MIC50, MIC90 and the like: level of inhibition, or share of isolates inhibited. Percent inhibition refers to the dose given; in toxicity tests it is the harm to the cells. ECn is the concentration giving n% inhibition of infection, replication or growth. a–b is a range or a potency band.

SMILES	read by	mutations	tested at	measure	strain or isolate	value
Cc1nnc(Sc2nc(C#N)c(C#N)nc2Sc2nnc(C)s2)s1	resazurin	-	6.25 µg/mL	inhibition	H37Rv	-2%
CCCCc1ccc(C(=O)Oc2c(OC)cc3ccnc4c3c2N(C)C=C4)cc1	-	-	-	MIC	H37Rv	>128 µg/mL
CC1(C)O[C@H]2[C@@H](O1)[C@@H](COCC(Cn1ccnc1[N+](=O)[O-])OCc1ccc(OC(F)(F)F)cc1)O[C@@H]1OC(C)(C)O[C@@H]12	agar	-	-	MIC	H37Rv	3.13 µg/mL
COc1ccc(-n2[nH]c(C)c(N=Nc3ccc(-c4n[nH]c(=S)n4C)cc3)c2=O)cc1	-	-	-	MIC	H37Rv	>6.25 µg/mL
O=c1ccc(=O)c2c(=O)c3cc4[nH]c5ccccc5[nH]c4cc3c(=O)c12	BACTEC	-	-	MIC bound	H37Rv	>12.5 µg/mL
c1cncc(CSc2nc3ccccc3o2)c1	-	-	-	MIC	My 331/88	250 µM
Cc1cn(CC2=NC3CCCCC3N2)c(=O)[nH]c1=O	BACTEC	-	-	MIC bound	H37Rv	>6.25 µg/mL
NC[C@H]1O[C@H](O[C@H]2[C@H](O)[C@@H](O[C@H]3O[C@H](CO)[C@@H](O)[C@H](N)[C@H]3O)[C@H](N)C[C@@H]2N)[C@H](N)C[C@@H]1O	turbidity	-	-	MIC	H37Rv	6.3 µg/mL
CO[C@H]1/C=C/O[C@@]2(C)Oc3c(C)c(O)c4c(O)c(c(/C=N/N5CCN(C)CC5)c(O)c4c3C2=O)NC(=O)/C(C)=C\C=C\[C@H](C)[C@H](O)[C@@H](C)[C@@H](O)[C@@H](C)[C@H](OC(C)=O)[C@@H]1C	agar	-	-	MIC	H37Rv	0.1 µg/mL
c1ccc(-n2cc(Cn3c4ccccc4c4ccccc43)nn2)cc1	agar	-	-	MIC	H37Rv	50 µg/mL
CCc1cn(C2OC(CO)C(Br)C2F)c(=O)[nH]c1=O	resazurin	-	-	MIC65	H37Ra	50 µg/mL
O=C1NC(Nc2ccc(Cl)cc2)=N/C1=C\c1ccc(Cl)cc1Cl	-	-	12.5 µg/mL	inhibition	H37Rv	100%
O=C1CSC(c2cccc(O)c2O)N1c1nncs1	BACTEC	-	12.5 µg/mL	inhibition	H37Rv	9%
CCC[C@@H]1C[C@@H](C(=O)N[C@@H]([C@H]2O[C@H](SC)[C@H](O)[C@@H](O)[C@H]2O)[C@@H](C)O)N(C)C1	turbidity	-	-	MIC	H37Rv	>200 µg/mL
Brc1cc(Br)cc(Cn2cc(Cn3c4ccccc4c4ccccc43)nn2)c1	agar	-	-	MIC	H37Rv	25 µg/mL
Cc1ccc2c(ccc(/C=C/c3cc(C)c4cccnc4c3O)[n+]2C)c1	BACTEC	-	12.5 µg/mL	inhibition	H37Rv	-39%
O=C1NC(Nc2cccc(Cl)c2)=N/C1=C\c1ccccc1Cl	-	-	12.5 µg/mL	inhibition	H37Rv	91%
COc1ccccc1[C@H](c1cc2cc(Br)ccc2cc1OC)[C@](O)(CCN(C)C)c1cccc2ccccc12	resazurin	-	-	MIC	H37Rv	1.999 µg/mL
O=C1Cc2cc(C(=O)CN3CCN(c4noc5cc(Cl)ccc45)CC3)ccc2N1	visual reading / absorbance	-	-	MIC	H37Rv	>50 µg/mL
O=C(CSc1nnc(-c2ccncc2)n1-c1ccccc1)c1ccccc1	-	-	-	MIC	H37Rv	>6.25 µg/mL
CCCCCCOCCOCCCNC(=O)c1cccnc1	BACTEC	-	-	MIC	H37Rv	≥12.5 µg/mL
Cc1[nH]n(-c2ccc([N+](=O)[O-])cc2)c(=O)c1N=Nc1ccc(-c2n[nH]c(=S)o2)cc1	-	-	-	EC50	H37Rv	>6.25 µg/mL
OCc1cc2c([nH]c3ccccc32)c(C(O)CO)n1	BACTEC	-	-	MIC bound	H37Rv	>12.5 µg/mL
O=C(CSc1nnc(-c2ccncc2)n1-c1ccc(Br)cc1)c1ccccc1	-	-	-	MIC	H37Rv	>6.25 µg/mL
CC(=O)/C(N=Nc1ccc(C(=O)N/N=C/c2ccc([N+](=O)[O-])o2)cc1)=C(/O)c1ccccc1	-	-	-	EC50	H37Rv	<12.5 µg/mL
CC1=CS(=O)(=O)OC(C)=C1	BACTEC	-	12.5 µg/mL	inhibition	H37Rv	0%
COc1cc2ccnc3c2c(c1OC(=O)c1ccc(OC(F)(F)F)cc1)N(C)C=C3	-	-	-	MIC	H37Rv	>128 µg/mL
O=c1[nH]c(=S)c(CO)cn1C1OC(CO)C(O)C1O	resazurin	-	-	MIC100	H37Ra	50 µg/mL
C=CCNc1c(C)c2c3c4c1C(=O)C(=C(/C=N/N1CCN(C)CC1)C4=O)NC(=O)/C(C)=C\C=C\[C@H](C)[C@H](O)[C@@H](C)[C@@H](O)[C@@H](C)[C@H](OC(C)=O)[C@H](C)[C@@H](OC)/C=C/O[C@@](C)(O2)C3=O	resazurin	-	-	MIC90	-	>4.7 µM
CN[C@@H]1[C@H](O[C@H]2[C@H](O[C@H]3[C@H](O)[C@@H](O)[C@H](N=C(N)N)[C@@H](O)[C@@H]3N=C(N)N)O[C@@H](C)[C@]2(O)C=O)O[C@@H](CO)[C@H](O)[C@H]1O	turbidity	-	-	MIC	H37Rv	3.1 µg/mL
COc1ccc(-n2cc(Cn3c4ccccc4c4ccccc43)nn2)cc1	agar	-	-	MIC	H37Rv	50 µg/mL
COc1cc2ccc(Br)cc2cc1[C@@H](c1cccc(C)c1)[C@](O)(CCN(C)C)c1cccc2ccccc12	resazurin	-	-	MIC	H37Rv	8 µg/mL
COc1ccc(-c2csc(/C(C#N)=C/c3ccc(O)c(OC)c3)n2)cc1	visual reading	-	-	MIC	Clinical isolate	1 µg/mL
NNC(=O)c1ccncc1	resazurin / fluorescence	XDR	-	MIC	MYC 431	>100 µg/mL
CCCCCCCCCCCCNC(=S)SCCC(=O)O	BACTEC	-	128 µg/mL	inhibition	H37Rv	100%
NC(=S)c1cc(SCc2cccc3ccccc23)ccn1	-	-	-	MIC	My 331/88	4 µM
COc1cc2ccc(Br)cc2cc1[C@@H](c1ccccc1)[C@@](O)(CCN(C)C)c1ccc(Br)cc1	resazurin	-	-	MIC	Clinical isolate	0.152 µg/mL
c1ccc2c(CSc3nc4ccccc4[nH]3)cccc2c1	-	-	-	MIC	My 331/88	32 µM
COc1cc2ccnc3c2c(c1OC(=O)c1ccc(C)cc1)N(C)C=C3	-	-	-	MIC	H37Rv	>128 µg/mL
c1ccc2c(CSc3nc4ccccc4o3)cccc2c1	-	-	-	MIC	My 331/88	>125 µM
CCS(=O)(=O)c1ccc(NP(=O)(Nc2ccc(S(=O)(=O)CC)cc2)c2ccc([N+](=O)[O-])cc2)cc1	BACTEC	-	-	MIC bound	H37Rv	>6.25 µg/mL
Cc1ccc2nc(SCc3ccccn3)[nH]c2c1	-	-	-	MIC	My 331/88	125 µM
O=C1CN(/N=C/c2ccc([N+](=O)[O-])o2)C(=O)N1	turbidity	-	-	MIC	H37Rv	50 µg/mL
C=CCn1c(SCC(=O)c2ccccc2)nnc1-c1ccncc1	-	-	6.25 µg/mL	inhibition	H37Rv	6%
Cc1cccc2c1CN1CC(=O)NC1=N2	-	-	6.25 µg/mL	inhibition	H37Rv	1%
COC(=O)CC[C@@H](C)[C@H]1CCC2C3C(C[C@H](O)[C@@]21C)[C@@]1(C)CC[C@H](n2cc(CNCCCCNc4ccnc5cc(Cl)ccc45)nn2)C[C@H]1C[C@H]3O	resazurin	-	-	MIC90	H37Rv	17 µM
CN1S(=O)(=O)N(C)P12(N=P(CP(=NP13(N(C)S(=O)(=O)N1C)N(C)S(=O)(=O)N3C)(c1ccccc1)c1ccccc1)(c1ccccc1)c1ccccc1)N(C)S(=O)(=O)N2C	BACTEC	-	-	MIC bound	H37Rv	>12.5 µg/mL
COc1ccc(CN=C2NC(=O)/C(=C/c3c(Cl)cccc3Cl)N2)cc1	-	-	-	MIC	H37Rv	>12.5 µg/mL
CO[C@H]1/C=C/O[C@@]2(C)Oc3c(c4c(O)cc(c5nn(CCO)c(c3C)c45)=NC(=O)/C(C)=C\C=C\[C@H](C)[C@H](O)[C@@H](C)[C@@H](O)[C@@H](C)[C@H](OC(C)=O)[C@@H]1C)C2=O	low oxygen	-	-	MIC90	-	>21.7 µM
CC[C@H]1OC(=O)[C@H](C)[C@@H](O[C@H]2C[C@@](C)(OC)[C@@H](O)[C@H](C)O2)[C@H](C)[C@@H](O[C@@H]2O[C@H](C)C[C@H](N(C)C)[C@H]2O)[C@](C)(OC)C[C@@H](C)C(=O)[C@H](C)[C@@H](O)[C@]1(C)O	turbidity	-	-	MIC	H37Rv	12.5–48 µg/mL
COc1ccc2cc1Oc1ccc(cc1)C[C@H]1c3cc(c(OC)cc3CCN1C)Oc1c(OC)c(OC)cc3c1[C@@H](C2)N(C)CC3	BACTEC	-	-	MIC bound	H37Rv	>12.8 µg/mL
Cc1nc([N+](=O)[O-])cn1CC(O)COC[C@H]1O[C@@H]2OC(C)(C)O[C@@H]2[C@H]2OC(C)(C)O[C@H]21	agar	-	-	MIC	H37Rv	>12.5 µg/mL
CCOC(=O)c1[nH]c(C)c(/C(C)=N\NC(N)=O)c1C	BACTEC	-	12.5 µg/mL	inhibition	H37Rv	19%
CC1(C)O[C@H]2[C@@H](O1)[C@@H](C[N+]1=NC([N+](=O)[O-])N=C1)O[C@@H]1OC(C)(C)O[C@@H]12	agar	-	-	MIC	H37Rv	12.5 µg/mL
COC1=CC(=O)c2c(O)c3c(c(O)c2C1=O)C=C(C)OC3O	BACTEC	-	-	MIC	H37Rv	12.5 µg/mL
CCCCCCCC/C=C/CCCCCCCCC(=O)Oc1c(OC)cc2ccnc3c2c1N(C)C=C3	-	-	-	MIC	H37Rv	>128 µg/mL
CC1C(=O)N(C)c2ccc(C(=O)CN3CCN(c4noc5c(Cl)cccc45)CC3)cc21	visual reading / absorbance	-	-	MIC	H37Rv	6.25 µg/mL
CCc1cn(C2OC(CO)CC2F)c(=O)[nH]c1=O	resazurin	-	-	MIC25	H37Ra	100 µg/mL
CC[C@H]1OC(=O)[C@H](C)[C@@H](O[C@H]2C[C@@](C)(OC)[C@@H](O)[C@H](C)O2)[C@H](C)[C@@H](O[C@@H]2O[C@H](C)C[C@H](N(C)C)[C@H]2O)[C@](C)(O)C[C@@H](C)CN(C)[C@H](C)[C@@H](O)[C@]1(C)O	turbidity	-	-	MIC	H37Rv	>400 µg/mL
CCOC(=O)C1=C(NC)C(=O)N(C)C1c1ccccc1	BACTEC	-	-	MIC	H37Rv	≥12.8 µg/mL
COc1cc2ccc(Br)cc2cc1[C@@H](c1ccccc1)[C@](O)(CCN(C)C)c1ccccc1Br	resazurin	-	-	MIC	H37Rv	>32 µg/mL
C[C@@H]1CN(c2c(F)c(N)c3c(=O)c(C(=O)O)cn(C4CC4)c3c2F)C[C@H](C)N1	-	-	-	MIC90	20 strains	0.5 µg/mL
CO[C@H]1/C=C/O[C@@]2(C)Oc3c(C)c(NCc4ccccc4)c4c(c3C2=O)C(O)C(/C=N/N2CCN(C)CC2)=C(NC(=O)/C(C)=C\C=C\[C@H](C)[C@H](O)[C@@H](C)[C@@H](O)[C@@H](C)[C@H](OC(C)=O)[C@@H]1C)C4=O	low oxygen	-	-	MIC90	-	>17.5 µM
Fc1c(F)c(F)c(Cn2cc(Cn3c4ccccc4c4ccccc43)nn2)c(F)c1F	agar	-	-	MIC	H37Rv	6.25 µg/mL
N#CCSc1nnc(Cc2csc(NCCC(=O)O)n2)n1NC(=O)c1ccc(Cl)cc1	-	-	6.25 µg/mL	inhibition	H37Rv	96%
Brc1ccc(Cn2cc(Cn3c4ccccc4c4ccccc43)nn2)cc1	agar	-	-	MIC	H37Rv	25 µg/mL
CC(=O)N1C(=O)/C(=C\C(=O)c2ccc([N+](=O)[O-])cc2)c2ccccc21	visual reading	-	-	MIC	H37Rv	8 µg/mL
Cc1ccc2[nH]c3c(C)c4cc[n+](C)cc4c(C)c3c2c1	resazurin / fluorescence	-	-	MIC	H37Rv	3 µM
CC1CCC2C1(C)CCC1C2(C)CCC2(C)C3CC(C)(C)CCC3(C)CCC12C	BACTEC	-	-	MIC bound	H37Rv	>12.5 µg/mL
Cc1ccc(C)c(-n2cc(Cn3c4ccccc4c4ccccc43)nn2)c1	agar	-	-	MIC	H37Rv	50 µg/mL
O=C1c2ccccc2C(=O)N1N1C(=O)C2C3CCC(O3)C2C1=O	BACTEC	-	12.5 µg/mL	inhibition	H37Rv	3%
CC1C(=O)N(C)c2ccc(C(=O)CN3CCN(c4noc5ccccc45)CC3)cc21	visual reading / absorbance	-	-	MIC	H37Rv	6.25 µg/mL
CCOc1ccn(C2OC(COC(C)=O)C(OC(C)=O)C(OC(C)=O)C2Nc2ccc([N+](=O)[O-])cc2[N+](=O)[O-])c(=O)n1	BACTEC	-	12.5 µg/mL	inhibition	H37Rv	-2%
Nc1ccc(NC2=C(N3CCCCC3)C(=O)c3ccccc3C2=O)cc1	visual reading	-	-	MIC	H37Rv	8 µg/mL
C=C1C(=O)OC2[C@H]3O[C@]3(C)CC/C=C(/C)[C@H](O)C[C@@H]12	BACTEC	-	-	MIC bound	H37Rv	>12.5 µg/mL
O=C1NC(Nc2ccccc2)=N/C1=C\c1c(Cl)cccc1Cl	-	-	12.5 µg/mL	inhibition	H37Rv	1%
CC(C)C[C@@H]1NC(=O)[C@H](Cc2c[nH]c3ccccc23)NC(=O)[C@@H](CCCN)NC(=O)[C@H](CC(=O)NCc2ccccc2)NC(=O)[C@H](C(C)C)NC(=O)[C@@H](CC(C)C)NC1=O	resazurin	-	-	MIC	H37Rv	5 µM
COc1ccc(OC)c(-n2cc(Cn3c4ccccc4c4ccccc43)nn2)c1	agar	-	-	MIC	H37Rv	25 µg/mL